Results reported in article PMC4318582, “Chemotherapy of Second Stage Human African Trypanosomiasis: Comparison between the Parenteral Diamidine DB829 and Its Oral Prodrug DB868 in Vervet Monkeys” (PLoS Neglected Tropical Diseases, 2015).

Assay: Haematological changes after treatment of infected vervet monkeys
Assay type: in vivo, vervet monkey

## CONC(=N)c1ccc(-c2ccc(-c3ccc(C(=N)NOC)cn3)o2)nc1 [DB868, 2,5-bis[5-(N-methoxyamidino)-2-pyridyl]furan]
DB829 IM or DB868 orally
  time for RBC counts to recover to baseline levels upon treatment: 1–2 months
post-LDD of DB868
  time for platelet cell counts to recover to baseline (pre-infection) levels: Within one week
